A mixed list of measured activities; the numbers were collected in NIAID ChemDB.

Shared fields: toxicity to cultured cells; measure: CC50

CCn is the concentration with n% toxicity to the cells.

compound	method	cells	result
COc1ccc(/C=N/NC(=O)Nc2cccc3nsnc23)cc1O	luminescence	Cf2Th-CD4/CCR5	11.6 µM
Nc1c(-c2nc3ccccc3[nH]2)cc(-c2ccccc2)n1-c1ccc(Cl)cc1	resazurin	A549 lung cancer cells	12 µM
CC(C)N(Cc1cccc(OCCCCCC(=O)OC(=O)O)c1)C(=O)c1ccc(-c2cccc(N(C)C)c2)cc1	-	HEK 293	>20 µM
C=C(C)C1CC[C@@H]2CC[C@]3(C)C(CCC4[C@@]5(C)CC[C@H](O)C(C)(C)C5CC[C@]43C)C12	XTT	1A2	11.6 µg/mL
CO/C=C(/C(=O)OC)[C@H](C)C(=O)/C=C/c1ccccc1	-	HeLa S3	25 µg/mL
CCC1(Cc2ccccc2)OS(=O)(=O)C=C1OCC=C(C)C	-	HEL fibroblasts	112 µM
N#Cc1nc2c(-c3nc4ccccc4[nH]3)c(N)n(CCc3ccc(S(N)(=O)=O)cc3)c2nc1C#N	resazurin / fluorescence	L6 rat skeletal myoblasts	>100 µM
CO/C=C(/C(=O)OC)[C@H](C)[C@H](/C=C/c1ccccc1)OC(C)=O	-	HL-60	20 µg/mL
CC1=CSC2=NC(/C=C/c3ccc(Cl)cc3)=C(C(=O)/C=C/c3ccc(Cl)cc3)C(c3ccccc3)N12	resazurin	C1008 (Vero cells)	252 µg/mL
C=CCOC1=CS(=O)(=O)OC1(CC)Cc1ccccc1	-	HEL fibroblasts	>200 µM
O=c1[nH]c(=O)n(C2C[C@H](CO)[C@H]2CO)cc1C=CBr	-	WI-38	≥750 µM
O=C1NC(=Nc2ccc(F)c(Cl)c2)S/C1=C\c1ccc(-c2ccc(C(=O)O)c(O)c2)o1	MTT	HT-29	1.1 µM
COc1cc2c(cc1OC)CN(c1c(F)c([N+](=O)[O-])c3c(=O)c(C(=O)O)cn4c3c1OCC4C)CC2	MTT	Mammalian Vero cells	62.5 µM
COc1ccc(C2C(C(=O)/C=C/c3ccc(F)cc3)=C(/C=C/c3ccc(F)cc3)N=C3SC=C(C)N32)cc1	resazurin	C1008 (Vero cells)	261 µg/mL
CCOC(=O)CCCCCOc1cccc(CN(C(=O)c2ccc(-c3cn(S(=O)(=O)c4ccccc4)c4ccccc34)cc2)C(C)C)c1	-	HepG2	>20 µM
CN1c2cc3c(cc2NC(c2ccc(C(=O)O)cc2)c2ccccc21)C(C)(C)CCC3(C)C	visual reading / absorbance	HepG2-NTCPsec+	>25 µM
CN1CCN(CC(=O)NC2CC3(N4CCN(C)CC4)CC(c4ccccc4)C2C(c2ccccc2)C3)CC1	-	Rat skeletal myoblasts	42.08 µM
O=c1[nH]c(=O)n(C2C[C@H](CO)[C@H]2CO)cc1C=CI	-	WI-38	>800 µM
COc1ccc(/C=N/NC(=O)Nc2cccc3nsnc23)cc1	luminescence	Cf2Th-CD4/CCR5	>112 µM
c1ccc(C2CC3(N4CCCCC4)CC(NCCCN4CCCC4)C2C(c2ccccc2)C3)cc1	-	Rat skeletal myoblasts	26.99 µM
CCOC(=O)CCCCCOc1cccc(CN(C(=O)c2ccc(-c3ccc4[nH]ccc4c3)cc2)C(C)C)c1	-	HEK 293	>20 µM
CC1=CSC2=NC(/C=C/c3ccc4c(c3)OCO4)=C(C(=O)/C=C/c3ccc4c(c3)OCO4)C(c3ccccc3)N12	resazurin	C1008 (Vero cells)	497 µg/mL
CC(=O)Nc1ccc(/C=N/n2cn[nH]c2=S)cc1	MTT	Fibroblast L929	>100 µg/mL
CC(C)C1(Cc2ccccc2)OS(=O)(=O)C=C1OCc1ccccc1	-	HEL fibroblasts	>200 µM
Cc1ccc(CCn2c(N)c(-c3nc4ccccc4[nH]3)c3nc(C#N)c(C#N)nc32)cc1	resazurin / fluorescence	L6 rat skeletal myoblasts	141 µM
O=C(NCc1ccc(Cl)cc1)c1c[nH]c2ccc(C#CCO)cc2c1=O	-	REF	39.6 µM
COc1ccc(CCn2c(N)c(-c3nc4ccccc4[nH]3)c3nc(C#N)c(C#N)nc32)cc1	resazurin / fluorescence	L6 rat skeletal myoblasts	174 µM
CC1COc2c(N3CCn4cc(C(=O)O)nc4C3)c(F)cc3c(=O)c(C(=O)O)cn1c23	MTT	Mammalian Vero cells	>145.9 µM
CCN(CC)CCCC(C)n1c(N)c(-c2nc3ccccc3n2C)c2nc(C#N)c(C#N)nc21	resazurin / fluorescence	L6 rat skeletal myoblasts	12 µM
C[C@H]1COc2c(N3CCc4ccccc4C3C(=O)NC(C)(C)C)c(F)cc3c(=O)c(C(=O)O)cn1c23	MTT	Mammalian Vero cells	127 µM
CCC1(Cc2ccccc2)OS(=O)(=O)C=C1OC(=O)c1ccccc1	-	HEL fibroblasts	>200 µM
CC(=O)C[C@@H]1C[C@H]2[C@H]([C@@H]3c4[nH]c5ccccc5c4CCN13)[C@H](O)C13CC/C=C\CCCCN1CC21CC/C=C\CCCNC13	-	H-116	5 µg/mL
CC1COc2c(N3CCN(C)C(c4ccccc4)C3)c(F)c([N+](=O)[O-])c3c(=O)c(C(=O)O)cn1c23	MTT	Mammalian Vero cells	130 µM
OC[C@H]1O[C@@H](n2cnc3c(CCSC4CCCCC4)ncnc32)[C@H](O)[C@@H]1O	-	Huh7 (MT-4)	>100 µM
COc1cc(/C=N/NC(=O)Nc2cccc3nsnc23)cc(OC)c1OC	luminescence	Cf2Th-CD4/CCR5	>112 µM
CC[C@H](/C=C/[C@@H](C)[C@H]1CC[C@H]2[C@@H]3CC=C4C[C@@H](O[C@@H]5O[C@H](CO)[C@@H](O)[C@H](O)[C@H]5O)CC[C@]4(C)[C@H]3CC[C@]12C)C(C)C	XTT	1A2	>125 µg/mL
Nc1c(-c2nc3ccccc3[nH]2)cc(-c2ccccc2)n1-c1cccc(Cl)c1	sulforhodamine	MCF-7 breast cancer cells	1.7 µg/mL
CN(C)CCn1c(N)c(-c2nc3ccccc3[nH]2)c2nc(C#N)c(C#N)nc21	resazurin / fluorescence	L6 rat skeletal myoblasts	6 µM
O=C(NCc1ccc(Cl)cc1)c1c[nH]c2c(F)cc(CCCO)cc2c1=O	-	REF	>50 µM
CC1=CSC2=NC(/C=C/c3ccc(Br)cc3)=C(C(=O)/C=C/c3ccc(Br)cc3)C(c3ccccc3)N12	resazurin	C1008	282 µg/mL
C=CCn1c(CN2c3ccccc3Nc3nc(=O)c4ccccc4nc32)nc2ccccc21	sulforhodamine	MCF-7 breast cancer cells	0.667 µg/mL
CN1CCN(CC(=O)NC2CC3(N4CCCCC4)CC(c4ccccc4)C2C(c2ccccc2)C3)CC1	-	Rat skeletal myoblasts	57.52 µM
O=C1/C(=C/c2ccc(-c3cc(C(F)(F)F)ccc3Cl)o2)SC(=S)N1Cc1ccc(F)cc1	MTT	HT-29	4.6 µM
CCC1(Cc2ccccc2)OS(=O)(=O)C=C1OCc1ccc(Cl)cc1	-	HEL fibroblasts	<200 µM
Nc1nc2ccccc2[nH]c1=O	sulforhodamine	MCF-7 breast cancer cells	1.28 µM
CCC1(Cc2ccccc2)OS(=O)(=O)C=C1OCCCCc1ccccc1	-	HEL fibroblasts	99 µM
CC1=CSC2=NC(/C=C/c3ccc(Cl)cc3)=C(C(=O)/C=C/c3ccc(Cl)cc3)C(c3ccc(Cl)cc3)N12	resazurin	C1008 (Vero cells)	309 µg/mL
CNC(=O)/C=C(\c1ccccc1)c1ccc2nc(N)c(-c3ccccc3)n2c1	-	H-HELA	5.03 µg/mL
O=C(N/N=C/c1cccc(O)c1)Nc1cccc2nsnc12	luminescence	Cf2Th-CD4/CCR5	46.2 µM
C[C@H]1COc2c(N3CCSCC3)c(F)cc3c(=O)c(C(=O)O)cn1c23	MTT	Mammalian Vero cells	>172 µM
CCOC(=O)CCCCCOc1cccc(CN(C(=O)c2ccc(-c3cccc(C#N)c3)cc2)C(C)C)c1	-	HEK 293	>20 µM
O=C(N/N=C/c1ccc(O)c(Cl)c1)Nc1cccc2nsnc12	luminescence	Cf2Th-CD4/CCR5	19.2 µM
CCOP(=O)(CO[C@]1(C2CC2)C=C[C@H](n2cnc3c(N)ncnc32)C1)OCC	XTT / absorbance	T4	98 µM
CNC(=O)/C=C(\c1ccccc1)c1ccc2nc(N)c(SC(C)C)n2c1	-	H-HELA	10 µg/mL
COc1ccc(/C=N/NC(=O)Nc2cccc3nsnc23)c(OC)c1	luminescence	Cf2Th-CD4/CCR5	101 µM
O=C(NCc1cccs1)c1nn2c(c1Cl)N[C@@H](c1ccco1)C[C@H]2C(F)(F)F	ATP	CA32 replicon cells	>100 µM
O=C1/C(=C/c2ccc(-c3cc(C(F)(F)F)ccc3Cl)o2)SC(=S)N1Cc1ccc(Cl)cc1	MTT	Ramos	3.8 µM
OC[C@H]1O[C@@H](n2cnc3c(CCSC4=NCCS4)ncnc32)[C@H](O)[C@@H]1O	-	Huh7 (MT-4)	>100 µM
CC1=CSC2=NC(/C=C/c3ccccc3Cl)=C(C(=O)/C=C/c3ccccc3Cl)C(c3ccc(Cl)cc3)N12	resazurin	C1008 (Vero cells)	430 µg/mL
CCN(CC)CCCC(C)n1c(N)c(-c2nc3ccccc3[nH]2)c2nc(C#N)c(C#N)nc21	resazurin / fluorescence	L6 rat skeletal myoblasts	2 µM
CC1=CSC2=NC(/C=C/c3ccccc3)=C(C(=O)/C=C/c3ccccc3)C(c3ccccc3)N12	resazurin	C1008 (Vero cells)	195 µg/mL
CCOP(=O)(CO[C@@]1(C2CC2)C[C@@H](n2cnc3c(N)ncnc32)[C@H](C)[C@@H]1C)OCC	XTT / absorbance	T4	>100 µM

The first 4 rows once more:

{"compound": "COc1ccc(/C=N/NC(=O)Nc2cccc3nsnc23)cc1O", "method": "luminescence", "cells": "Cf2Th-CD4/CCR5", "result": "11.6 µM"}
{"compound": "Nc1c(-c2nc3ccccc3[nH]2)cc(-c2ccccc2)n1-c1ccc(Cl)cc1", "method": "resazurin", "cells": "A549 lung cancer cells", "result": "12 µM"}
{"compound": "CC(C)N(Cc1cccc(OCCCCCC(=O)OC(=O)O)c1)C(=O)c1ccc(-c2cccc(N(C)C)c2)cc1", "cells": "HEK 293", "result": ">20 µM"}
{"compound": "C=C(C)C1CC[C@@H]2CC[C@]3(C)C(CCC4[C@@]5(C)CC[C@H](O)C(C)(C)C5CC[C@]43C)C12", "method": "XTT", "cells": "1A2", "result": "11.6 µg/mL"}

An empty or dashed field is not shown. Conditions beyond the fields shown may differ between rows.